Measured values: PMC7160669 (Biochemistry, 2019)

What was measured:
Settings in all cases: Conditions as for WT
[1] = target: ChdC (SaChdC; coproheme decarboxylase) (Staphylococcus aureus, UniProt A6QEP0, K129A)
[2] = target: ChdC (SaChdC; coproheme decarboxylase) (Staphylococcus aureus, UniProt A6QEP0, Y133F)
[3] = target: ChdC (SaChdC; coproheme decarboxylase) (Staphylococcus aureus, UniProt A6QEP0, E120L)

Q: How did the Kd [1] turn out when coproheme was run?
A: 0.5 ± 0.05 µM

Q: What about the Kd [2] of the same substance?
A: 1.7 ± 0.3 µM

Q: What about the Kd [3] of the same substance?
A: 1.3 ± 0.07 µM
